PubChem BioAssay AID504761 | Drosophila RNAi Screening Center – 2011
In all, the deposit lists about 22,000 reagents; shown is a random part of those with a known target gene and a result. Over the whole deposit, 116 (0.52%) were called active. 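Calls depend on retest data that are not deposited; infection was ranked per plate without normalising between plates; the unit of the infection score is not given.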 Raw values vary from plate to plate and are shown uncorrected. Names joined by + are all predicted targets of the reagent. Not given: the amount of reagent, the time to read-out.

Test: 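Genome-wide fly cell screen for genes dengue virus requires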 (primary screen)
Cells: D.Mel-2 cells from Drosophila
Knock-down reagent: long dsRNA against Drosophila genes
Challenge: infection with dengue virus type 2; dose and infection time not stated
Detection: 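Cells stained for dengue envelope protein and imaged; percent of infected cells per well on duplicate plates, ranked by infection, with stained nuclei counted for cell number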
Scale: infection score: higher = more virus-infected cells; cell count: higher = more cells in the well
Rule for the call: 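Very low infection ranking in both replicate wells (chance probability at most 0.065), then a retest showing infection dropped 1.5-fold or more at p below 0.05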
Meaning of the calls: active = confirmed: knock-down lowers infection; inactive = not picked or not confirmed

target	PubChem SID	infection score, replicate 1	infection score, replicate 2	cell count, replicate 1	cell count, replicate 2	call
Mur82C	SID104191803	1.32	0.71	5391	5238	inactive
Mur82C	SID104192004	1.48	12.5	5408	6262	inactive
Mur82C	SID104202729	21.3	18	5440	5642	inactive
CG5001	SID104180465	6.6	1.8	6594	6607	inactive
CG5001	SID104204735	22.7	12.2	3866	5275	inactive
Agpat3	SID104190237	2.77	5.05	6748	6908	inactive
CG31091	SID104195725	5.2	9.42	5194	6914	inactive
CG6153	SID104182727	17.7	11.8	5964	6482	inactive
drd	SID104199135	5.23	6.04	6710	6755	inactive
drd	SID104201203	2.49	1.57	6981	6753	inactive
drd	SID104205017	1.28	0.89	5799	5960	inactive
CG8586	SID104187010	10.2	6.3	5939	6489	inactive
CG32812	SID104198270	0.85	10.1	6562	6350	inactive
CG15344 (retired record)	SID104197821	22.6	0.7	4067	426	inactive
Tango10	SID104199599	7.14	7.05	6109	7092	inactive
Tango10	SID104205079	1.28	1.93	6402	6427	inactive
CG2121	SID104186611	19.2	6.76	5671	6409	inactive
CG2121	SID104186612	1.47	6.67	6724	6728	inactive
CG6295	SID104195804	1.82	1.89	5771	6023	inactive
CG6295	SID104203086	24.5	28.7	6161	6169	inactive
CG7294	SID104182833	2.79	1.59	6421	6684	inactive
CG7294	SID104203882	5.68	5.93	5793	6378	inactive
Hsp70Bb + Hsp70Bbb	SID104195677	2.27	2.56	6067	6834	inactive
CG1979	SID104192287	10.6	10.4	6031	5913	inactive
CG1979	SID104203351	6.01	2.99	6058	5727	inactive
Twdlbeta	SID104187102	2.71	6.46	6863	6672	inactive
Twdlbeta	SID104204190	4.53	3.88	6583	6193	inactive
CG32111 (retired record)	SID104188995	3.57	2.46	6054	5896	inactive
CG32236	SID104187909		0.2	894	6032	inactive
CG14505	SID104186268	26.7	14.6	5412	1565	inactive
CG5662	SID104199749	3.25	1.25	6889	7919	inactive
exp	SID104186105	16.1	16.1	4862	6179	inactive
exp	SID104203550	3.15	4.92	6675	6205	inactive

Next part (2 carried over from the part before).
target	PubChem SID	infection score, replicate 1	infection score, replicate 2	cell count, replicate 1	cell count, replicate 2	call
exp	SID104186105	16.1	16.1	4862	6179	inactive
exp	SID104203550	3.15	4.92	6675	6205	inactive
CG5151	SID104202577	0.58	26.1	6061	4757	inactive
CG5151	SID104207641	8.55	6.11	5767	2453	inactive
CG31698	SID104201757	2.16	0.77	6845	7013	inactive
CG31698	SID104207107	5.32	2.22	1655	765	inactive
side-V	SID104183981	4.28	3.23	6265	6107	inactive
Dop1R2	SID104193750	3.5	2.43	5771	5316	inactive
Dop1R2	SID104195171		2.03	337	787	inactive
Dop1R2	SID104206816	12.2	1.5	6251	466	inactive
Gem4b + Gem4c + Glos	SID104198036	1.52	2.41	6757	6735	inactive
Octbeta3R	SID104195143	2	11.6	5963	6039	inactive
Octbeta3R	SID104195983	5.59	5.19	5955	5893	inactive
Octbeta3R	SID104201496	2.68	14.2	6743	2755	inactive
Octbeta3R	SID104201528	4.62	15.7	1795	2772	inactive
Octbeta3R	SID104201842	4.14	3.96	6231	6586	inactive
Octbeta3R	SID104202992	3.31	10.6	6443	6577	inactive
Octbeta3R	SID104203873	7.14	8.99	6370	5973	inactive
Octbeta3R	SID104205433	2.97	3.23	6255	6683	inactive
Sil1	SID104194034	4.55	2.46	6483	6842	inactive
OS9 + Hf	SID104183184	16.3	14.9	6158	6550	inactive
ERp44	SID104200007	1.43	1.41	6414	6787	inactive
CG5810	SID104195672	11.7	25.9	3066	5108	inactive
CG5810	SID104201544	5.67	2.94	6049	6492	inactive
Pcd	SID104196577	11.4		1054	398	inactive
CG8677 + CG31626	SID104181630	3.71	6.76	781	5780	inactive
msl-1	SID104183365	3.36	1.65	5661	6290	inactive
mRpS14	SID104199236	7.64	12.3	5239	5195	inactive
CG12998	SID104199310	0.78	2.85	6790	6177	inactive
Xpac	SID104198522	6.46	0.62	5344	6629	inactive
Xpac	SID104204507	4.88	5.21	6409	6791	inactive
Utx	SID104182664	3.87	0.73	6357	6713	inactive
NPF	SID104196811	2.1	5.09	6667	6605	inactive
Naprt	SID104180422	7.76	3.86	5849	6018	inactive
Naprt	SID104207196	9.06	17	6281	5141	inactive
Capr	SID104190138	4.09	1.28	5922	5857	inactive
Capr	SID104205321	6.74	2.91	5788	5813	inactive
CG17193	SID104194979	5.67	1.63	6441	6212	inactive
Tps1	SID104180061	4.35	12	6626	4683	inactive
Tps1	SID104205875	10.5	3.67	5441	6724	inactive
slbo	SID104184508	2.59	19.3	6323	6392	inactive
slbo	SID104206357	12.4	8.46	6087	6560	inactive
LPCAT	SID104197949	4.65	3.85	6403	6721	inactive
LPCAT	SID104198049	3.04	2.23	6587	6773	inactive
